Values quoted from earlier work in article PMC3002932, “Grifonin-1: A Small HIV-1 Entry Inhibitor Derived from the Algal Lectin, Griffithsin” (PLoS ONE, 2010).

Key:
[1] = system: proinflammatory cytokines; details: ref [24], [28]; cited from earlier work
[2] = ref [24], [28]; cited from earlier work
[3] = ref [24], [28]; cited from earlier work; remark: listed apart in the source

Substance: griffithsin
- release of proinflammatory cytokines [1]: did not induce the release of proinflammatory cytokines
- toxicity [2]: caused minimal toxicity
- stability over pH and temperature range [3]: stability over a satisfactory pH and temperature range
